Test results reported in publication PMC5599060.

Tests used:
[1] = molecular target: mLANA DBD (mLANA124-314) (Murine gammaherpesvirus 68 (MHV68)) (UniProt O41974); test: EMSA; conditions: 1 uM DNA; IVT EMSA: 20 mM Tris pH 7.5, 10% glycerol, 50 mM KCl, 0.1 mM DTT, 10 mM MgCl2, 1 mM EDTA, 20 ug/ml poly(dI-dC), 30 min on ice; recombinant protein; label: 5' fluorescein on strand 1
[2] = molecular target: T1, kLANA DBD (kLANA1008-1150) (Kaposi's sarcoma-associated herpesvirus (KSHV)) (UniProt Q9QR71); test: EMSA; conditions: 1 uM DNA; IVT EMSA: 20 mM Tris pH 7.5, 10% glycerol, 50 mM KCl, 0.1 mM DTT, 10 mM MgCl2, 1 mM EDTA, 20 ug/ml poly(dI-dC), 30 min on ice; recombinant protein; label: 5' fluorescein on strand 1
T1 sequence (looked up, limits assumed): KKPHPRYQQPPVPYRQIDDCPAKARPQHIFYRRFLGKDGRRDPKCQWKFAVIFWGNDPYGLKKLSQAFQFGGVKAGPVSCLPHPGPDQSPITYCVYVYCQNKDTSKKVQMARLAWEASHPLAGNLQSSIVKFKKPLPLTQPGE

| Sequence | binding result [1] | binding result [2] |
| --- | --- | --- |
| TTTCCCGCGCCTGGGGCGCCACGCGGCGCGCCCTGGAGACCCGGG / CCCGGGTCTCCAGGGCGCGCCGCGTGGCGCCCCAGGCGCGGG [Flc-mLBS1-2] | binds |  |
| TTTGACGCCGCCGGGGCCTGCGGCGCCTCCCGCCCGGGCATGGGGCCGC / GCGGCCCCATGCCCGGGCGGGAGGCGCCGCAGGCCCCGGCGGCGTC [Flc-kLBS1-2] | binds | binds |

Construct, isoform or probe ends are uncertain for at least one entry. At least one verdict was read from the data and is not stated in words by the source. For part of these data: Where a protein sequence is shown, tags need not be part of it.
